Reference: publication PMC3486911 (PLoS Pathogens, 2012)

Chains of the proteins cited; added tags and fusions are not shown. Residues count along the entry.
UniProt Q9JXV4, 20-274: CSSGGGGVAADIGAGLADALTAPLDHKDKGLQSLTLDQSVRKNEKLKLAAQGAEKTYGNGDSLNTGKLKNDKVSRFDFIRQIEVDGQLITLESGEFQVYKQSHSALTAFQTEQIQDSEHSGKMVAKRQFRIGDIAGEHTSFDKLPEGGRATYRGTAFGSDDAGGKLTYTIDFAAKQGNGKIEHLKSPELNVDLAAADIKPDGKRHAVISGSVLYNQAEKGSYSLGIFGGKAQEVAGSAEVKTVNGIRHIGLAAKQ
UniProt E6MV22, 20-274: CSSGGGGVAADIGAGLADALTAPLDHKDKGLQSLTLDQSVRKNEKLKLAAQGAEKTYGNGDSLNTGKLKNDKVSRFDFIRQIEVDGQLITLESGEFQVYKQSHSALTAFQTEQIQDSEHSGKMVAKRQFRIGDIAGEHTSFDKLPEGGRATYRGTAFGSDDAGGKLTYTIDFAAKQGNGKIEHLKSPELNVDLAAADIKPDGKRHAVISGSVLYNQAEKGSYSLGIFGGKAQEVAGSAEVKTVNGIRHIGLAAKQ

Assays:
[1] = molecular target: V1 fHbp (V1.p1), wild type (Neisseria meningitidis) (UniProt Q9JXV4); assay: SPR
[2] = molecular target: V2 fHbp (V2.p21), wild type (Neisseria meningitidis) (UniProt E6MV22); assay: SPR

human factor H CCP 6 and 7 (fH67) (domain or fragment)
Kd [1]: 3.2 nM
Kd [2]: 1.9 nM
